Reference: ChEMBL document CHEMBL1909294, “Translating clinical findings into knowledge in drug safety evaluation--drug induced liver injury prediction system (DILIps)” (PLoS Comput Biol, 2011)

System: Hepatotoxicity
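Further: Hepatitis-related hepatic side effect score taken from the training data of DILIps, a prediction system for drug-induced liver injury; call rule not given here.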

Sequence: GADOVERSETAMIDE
- HepSE_hepatitis: 0
